For this data set, the system named is HIV-1 IIIB. Nature of the data set: Screening for virucidal activity against HIV-1 IIIB, MAGI cell assay.

Consider “sulfonated 5,10,15,20-tetra-naphthalen-1-yl-porphyrin [TNapPS]”, for which the “selective index CC50/EC50” value came out at 15.
